Tests used:
Type in all cases: cell-based
K. pneumoniae HvKp2 = experiment: Siderophore concentrations in spent media, HvKp2; conditions: for Concentration in spent bacterial media, HvKp2: ferrated supernatant
K. pneumoniae HvKp1 = experiment: Siderophore concentrations in spent media, HvKp1; conditions: ferrated supernatant
E. coli CP9 = experiment: Siderophore concentrations in spent media, CP9; conditions: ferrated supernatant
E. coli Nissle 1917 = experiment: Siderophore concentrations in spent media, Nissle 1917; conditions: MOPS, 24 h, ferrated supernatant
E. coli MG1655 = experiment: Siderophore concentrations in spent media, MG1655; conditions: MOPS, 24 h, ferrated supernatant

| SMILES | Production by HvKpn2 (K. pneumoniae HvKp2; in MOPS) [mM] | Concentration in spent bacterial media, HvKp1 (K. pneumoniae HvKp1; M9, 24 h) [µM] | Concentration in spent bacterial media, HvKp1 (K. pneumoniae HvKp1; MOPS, 24 h) [µM] | Concentration in spent bacterial media, HvKp2 (K. pneumoniae HvKp2; M9, 24 h) [µM] | Concentration in spent bacterial media, HvKp2 (K. pneumoniae HvKp2; MOPS, 24 h) [µM] | Concentration in spent bacterial media, CP9 (E. coli CP9; M9, 24 h) [µM] | Concentration in spent bacterial media, CP9 (E. coli CP9; MOPS, 24 h) [µM] | Concentration in spent bacterial media, Nissle (E. coli Nissle 1917) [µM] | Concentration in spent bacterial media, MG1655 (E. coli MG1655) [µM] |
| --- | --- | --- | --- | --- | --- | --- | --- | --- | --- |
| CC(=O)N(O)CCCC[C@H](NC(=O)CC(O)(CC(=O)N[C@@H](CCCCN(O)C(C)=O)C(=O)O)C(=O)O)C(=O)O [Abn, aerobactin] | 0.6 |  |  |  |  |  |  |  |  |
| CC(=O)N([O-])CCCC[C@H](NC(=O)CC(O)(CC(=O)N[C@@H](CCCCN([O-])C(C)=O)C(=O)O)C(=O)[O-])C(=O)O.[Fe+3] [FeAbn, ferric aerobactin] |  | 210 ± 11 | 444 ± 91 | 186 ± 17 | 626 ± 90 | 0 | 0 |  |  |
| O=C(N[C@H]1COC(=O)[C@@H](NC(=O)c2cccc([O-])c2[O-])COC(=O)[C@@H](NC(=O)c2cccc([O-])c2[O-])COC1=O)c1cccc([O-])c1[O-].[Fe+3] [FeEnt, ferric enterobactin] |  | 0.43 ± 0.03 | 2.1 ± 0.07 | 0.267 ± 0.02 | 1.4 ± 0.07 | 0.2 ± 0.07 | 8.4 ± 0.7 |  |  |
| O=C(N[C@H]1COC(=O)[C@@H](NC(=O)c2cc([C@@H]3O[C@H](CO)[C@@H](O)[C@H](O)[C@H]3O)cc(O)c2[O-])COC(=O)[C@@H](NC(=O)c2cc([C@@H]3O[C@H](CO)[C@@H](O)[C@H](O)[C@H]3O)cc(O)c2[O-])COC1=O)c1cccc(O)c1[O-].[Fe+3] [FeGEnt] |  | 2.8 | 6.9 ± 0.07 | 0.9 | 14.9 ± 0.07 | 5.1 | 84 ± 0.7 | 71.3 ± 0.2 | 11.1 ± 1.5 |
